The values that follow come from article PMC11807745 (The Lancet. Microbe, 2024).

The target in this test is A/California/07/2009 H1 haemagglutinin (influenza A virus A/California/07/2009 …, UniProt C3W5X2). Description: BLI. The conditions noted are these: both partners purified.

B1: H2214 monoclonal antibody (antibody, V domains shown)
VH: EVQLLESGGGLVQPGGSLRLSCAASGFTFNHYAMTWVRQAPGKGLEWVASSSGSGRSTYYTDSVKGRFSVSRDNSKNTLYLQMNSLRAEDTAVYYCAKSSNYYGSGSYSPDDYYHMDVWGQGTTVTVSG
VL: EIVMTQSPDTLSVSPGERATLSCRASESISSNLAWYQQKPGQVPRLLIYGASTRATGVPARFTGSGSGTEFTLTISSLQSEDFAVYYCQQYNNRLPYTFGQGTKLEIK
As to B1, the binding result is listed as “binds”.

B2: FluA-20 monoclonal antibody (antibody, V domains shown)
VH: QVQLEESGPGLVKPSETLSLTCSVSGVSVTSDIYYWTWIRQPPGKGLEWIGYIFYNGDTNYNPSLKSRVTMSIDTSKNEFSLRLTSVTAADTAVYFCARGTEDLGYCSSGSCPNHWGQGTLVTVSS
VL: DIVMTQSPSSLSASIGDRVTITCRPSQNIRSFLNWFQHKPGKAPKLLIYAASNLQSGVPSRFSGSGSGTEFTLTIRSLQPEDFATYYCQQSYNTPPTFGQGTKVEIK
As to B2, the binding result was “binds”.
